Earlier results on 1 substance are cited in patent US9961896B2, “Cleaning liquid” (priority 2013, dated 2018).

In series [1] the test system is Cryptosporidium parvum. The conditions noted are these: 4 ppm chlorine at pH 7 for 25 hours; cited from earlier work.
The subject of series [2] is Cryptosporidium parvum. The settings on record: 4 ppm chlorine at pH 7 for 25 hours; cited from earlier work. This is another data set of the same source.

Take chlorine: the “reduction in cell viability, excystation assay” value in the series on Cryptosporidium parvum [1] is listed as 40%. Further, the “decrease in cell viability, DAPI/PI assay” value in the series on Cryptosporidium parvum [2] is on record as “no decrease in cell viability”.
